In patent US10287311B2, “Modified fluorinated nucleoside analogues” (priority 2003, dated 2019) one finds EC90 and IC50 data, which are given here for four compounds.

By UniProt entry, the sequences of proteins in these tests, tags left out. Residues count along the entry.
UniProt Q9WMX2, 2420-3010 S2701T: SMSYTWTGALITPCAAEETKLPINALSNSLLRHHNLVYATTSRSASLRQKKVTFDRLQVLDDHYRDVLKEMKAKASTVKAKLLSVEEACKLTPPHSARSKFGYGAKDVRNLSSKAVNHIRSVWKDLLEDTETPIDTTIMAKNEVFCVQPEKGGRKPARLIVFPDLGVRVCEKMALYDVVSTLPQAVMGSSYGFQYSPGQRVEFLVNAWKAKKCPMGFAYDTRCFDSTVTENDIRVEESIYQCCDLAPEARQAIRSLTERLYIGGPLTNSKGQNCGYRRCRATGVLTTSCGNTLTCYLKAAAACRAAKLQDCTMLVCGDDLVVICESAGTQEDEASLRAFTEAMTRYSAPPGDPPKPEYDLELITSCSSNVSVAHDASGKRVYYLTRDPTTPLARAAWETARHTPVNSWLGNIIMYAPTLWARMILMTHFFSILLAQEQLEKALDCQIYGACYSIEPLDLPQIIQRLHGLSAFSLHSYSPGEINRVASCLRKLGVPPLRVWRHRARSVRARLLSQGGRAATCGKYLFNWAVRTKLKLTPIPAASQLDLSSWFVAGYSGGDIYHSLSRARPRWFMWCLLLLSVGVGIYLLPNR

The test system of one experiment is S282T mut. 1b replicon. The experiment can be described thus: microbe, parasite or virus in culture. Conditions: Hepatitis C virus.
Experiment [1] has as its target HCV 1b NS5B polymerase, S282T (Hepatitis C virus genotype 1b, UniProt Q9WMX2, S2701T). The experiment can be described thus: biochemical.

Compound `C[C@@]1(F)[C@H](O)[C@@H](CO)O[C@H]1n1ccc(N)nc1=O` showed an EC90 in the experiment with S282T mut. 1b replicon of 30.7 ± 11.7 µM.
Turning to `C[C@@]1(F)[C@H](O)[C@@H](COP(=O)(O)OP(=O)(O)OP(=O)(O)O)O[C@H]1n1ccc(N)nc1=O`, the IC50 is 2 µM in experiment [1] (batch 1) and 8.3 ± 2.4 µM in experiment [1] (batch 2).
In turn, `C[C@@]1(O)[C@H](O)[C@@H](CO)O[C@H]1n1cnc2c(N)ncnc21` [2′-C-methyladenosine] gave an EC90 in the experiment on S282T mut. 1b replicon of more than 100 µM.
Take `C[C@@]1(O)[C@H](O)[C@@H](CO)O[C@H]1n1ccc(N)nc1=O` [2′-C-methylcytidine]: it took 37.4 ± 12.1 µM to reach the 90% level with S282T mut. 1b replicon (EC90).
